This data set addresses RR01-D52E (response regulator of TCS01, phosphomimetic) (UniProt Q8DNX6). Kind of data set: EMSA. The following applies: 2.5 ug protein, 100 ng DNA (>140 molar excess); recombinant protein; residues 1-225; label: none (GelRed stain); probe letters rebuilt from the primers and the genome. On the technique in general: Mobility shift assays separate free from complexed probe on a gel.

The exact form of at least one protein or probe is not confirmed.

As for “ATATTTCACCCAATCTTACAAAAATGTAAGATTAAAGTCTCTTTTGTAAGGTTAGGTTATGGCAAGCGGTCTTTTTTTGATGTAAACTAGACTCATAAAGAACAAAGGAGTAACATCATGAAACAAATCTTACATAAGAAAACTAGAAAACCAAGTCACAAAGAAATTGAGCGCGTTCAGCTGGGATGCACTATGATGCAAGCTACATTTCATTTGATGGGATATTAAGAAAGGAGATTCTCATGACACTTTTAGATGTAAAACACGTTCAAAAAATTTATAAAACACGTTTTCAGGGCAACCAAGTAGAAGCCCTCAAGGATATTCACTTTACCGTCGAAAAGGGTGACTACGTTGCCATCATGGGTGAGTCTGGTTCTGGTAAATCAACTCTTCTCAATATTCTAGCTATGCTGGATAAACCAAGTCGTGGTCAGGTTTACTTGAATGGAACTGACACCGCAACCATTAAAAATTCACAGGCCTCTAGCTTCCGTCGTGAAAAGTTGGGCTTTGTCTTCCAAGACTTTAACTTGCTAGATACTCTATCTGTAAAGGACAATATCTTGCTTCCGCT (double strand) [bceAB promoter fragment]”, the binding result is “binds”.

Values taken from paper PMC9020739, “Identification of a two-component regulatory system involved in antimicrobial peptide resistance in Streptococcus pneumoniae” (PLoS Pathogens, 2022).
